Assay results: publication PMC4706170

Molecular target: BG505 SOSIP.664 P313W (HIV-1 strain BG505)
Assay: SPR

## soluble CD4 (from UniProt P01730) (receptor)
  stoichiometry N (CD4 per trimer): 3
